Measured values from several laboratories, pooled; numbers as filed in NIAID ChemDB.

Shared fields: whole-cell or culture tests; species: HIV-1; measure: fold resistance

Blank or dashed fields: not listed here. Fold resistance has wild type as its base. Neighbouring rows are from separate reports.

smiles | method | strain or isolate | cell line | changes | result
C[C@@H]1CCO[C@H]2Cn3cc(C(=O)NCc4ccc(F)cc4F)c(=O)c(O)c3C(=O)N12 | RT activity | NL4-3 | CBMC | H51Y/R263K | 2
Cc1cc(S(N)(=O)=O)ccc1NC(=O)COc1ccc(Cl)cc1C(=O)c1cc(F)cc(C#N)c1 | β-galactosidase | HXB2 | HeLa + HELA CD4+ | RT-V106A Y181C | ~1
Cc1ccc(C2CC2)c(-c2ccc3c(c2C)CCCO3)c1[C@H](OC(C)(C)C)C(=O)O | luminescence | NL4-3 | MT-4 | NRTI/NNRTI resistant K103N/Y181C | 1
O=C1Nc2ccc(F)c(F)c2[C@@](/C=C/C2CC2)(C(F)(F)F)N1 |  |  |  | RT-G190S | 65.8
Cc1ccc(C2CC2)c(-c2cc(F)c3c(c2C)CCCO3)c1[C@H](OC1CC1)C(=O)O | luminescence | NL4-3 | MT-4 | INSTI-resistant (IN-G140S Q148H) | 1
CC(C)=CCOc1cc(NC(=S)c2ccoc2C)ccc1Cl | cytopathic effect / XTT | Oxathiin carboxanilide-resistant RT L100I | CEM + CEM-SS | RT-L100I | 50
Cc1cc2cn[nH]c2cc1NC(=O)COc1ccc(Cl)cc1C(=O)c1cccc(C#N)c1 | β-galactosidase | HXB2 | HeLa + HELA CD4+ | RT-G190A | ~1
C/C=C/CSc1cc(NC(=S)c2ccsc2C)ccc1Cl | p24 | NL4-3 | CEM + CEM-SS | RT-L74V | 0.875
CC(=O)c1ccc(C)cc1NC(C(N)=O)c1c(Cl)cccc1Cl | cytopathic effect / XTT | UC82-R (RT-Y181C) | CEM + CEM-SS | RT-Y181C | >100
N#Cc1cc(Cl)cc(Oc2c(Br)ccc(CC(=O)Nc3ccc(S(N)(=O)=O)cc3Cl)c2F)c1 |  |  | MT-4 | L100I V106I Y181C Y188L | >308
O=C1Nc2ccc(Cl)cc2[C@@](/C=C/C2CC2)(C(F)(F)F)N1 |  |  |  | RT-V106A | <6
Cc1cc(OCCCS(N)(=O)=O)ccc1NC(=O)COc1ccc(Cl)cc1C(=O)c1cc(F)cc(C(F)(F)F)c1 | β-galactosidase | HXB2 | HeLa + HELA CD4+ | RT-E138K | ~1
CC(C)=CCOc1cc(NC(=S)c2ccsc2C)ccc1Cl | cytopathic effect / XTT | UC040-R (RT-Y181C) | CEM + CEM-SS | RT-Y181C | 20
Cc1cc(S(N)(=O)=O)ccc1NC(=O)COc1ccc(Cl)cc1C(=O)c1cccc(C#N)n1 | cytopathic effect / propidium iodide | Nevirapine-resistant (RT Y181C) | MT-4 | RT-Y181C | ~1
CCC(=O)c1ccc(F)c([C@@H]2C[C@@H]2NC(=O)Nc2ccc(C#N)cn2)c1O | β-galactosidase / luminescence | LAI | TZM-bl | NNRTI-resistant (RT H221Y) | 1.3

For reference, 2 entries again:

{"smiles": "CCC(=O)c1ccc(F)c([C@@H]2C[C@@H]2NC(=O)Nc2ccc(C#N)cn2)c1O", "method": "β-galactosidase / luminescence", "strain or isolate": "LAI", "cell line": "TZM-bl", "changes": "NNRTI-resistant (RT H221Y)", "result": "1.3"}
{"smiles": "Cc1ccc(C2CC2)c(-c2ccc3c(c2C)CCCO3)c1[C@H](OC(C)(C)C)C(=O)O", "method": "luminescence", "strain or isolate": "NL4-3", "cell line": "MT-4", "changes": "NRTI/NNRTI resistant K103N/Y181C", "result": "1"}